Test results reported in patent publication US11604145B2, “Method for ultra-high performance screening of biological objects” (dated 2023).

Tested on: S. aureus
Test: Cocultivation with S. aureus in culture
Conditions: P. aeruginosa cocultivation

## pyoverdine
  mediation of S. aureus growth inhibition: not mediated
